Results on five compounds are retold here after publication PMC8950700 (Pharmaceuticals, 2022).

The target of this data set is NA of the H5N1 virus (Influenza A virus, UniProt A0A0M3MZ16). Briefly: IC50 used for ligand efficiency profile (Table 3). The following applies: for LE (ligand efficiency): LE = (pIC50 × 1.37) ÷ NHA; for LLE (ligand lipophilic efficiency): LLE = pIC50 − cLogP.

In the case of `CC(=O)OC[C@H]1O[C@@H](OCc2cn(Cc3nc4ccccc4s3)nn2)[C@H](OC(C)=O)[C@@H](OC(C)=O)[C@H]1OC(C)=O` [Compound 8c, (2R,3S,4S,5R,6R)-2-(Acetoxymethyl)-6-((1-(benzo[d]thiazol-2-ylmethyl)-1H-1,2,3-triazol-4-yl)methoxy)tetrahydro-2H-pyran-3,4,5-triyl Triacetate], the “LE (ligand efficiency)” value was determined as 0.30 and the “LLE (ligand lipophilic efficiency)” value was 6.88.

Regarding `CC(=O)O[C@@H]1[C@@H](OC(C)=O)[C@H](OCc2cn(Cc3nc4ccccc4o3)nn2)OC[C@H]1OC(C)=O` [Compound 9b, (2R,3R,4S,5R)-2-((1-(Benzo[d]oxazol-2-ylmethyl)-1H-1,2,3-triazol-4-yl)methoxy)tetrahydro-2H-pyran-3,4,5-triyl Triacetate], the “LE (ligand efficiency)” value was 0.34 and the “LLE (ligand lipophilic efficiency)” value is 7.10.

On to `CC(=O)O[C@@H]1[C@@H](OC(C)=O)[C@H](OCc2cn(Cc3nc4ccccc4[nH]3)nn2)OC[C@H]1OC(C)=O` [Compound 9a, (2R,3R,4S,5R,)-2-((1-((1H-Benzo[d]imidazol-2-yl)methyl)-1H-1,2,3-triazol-4-yl)methoxy)tetrahydro-2H-pyran-3,4,5-triyl Triacetate], for which the “LE (ligand efficiency)” value was 0.34 and the “LLE (ligand lipophilic efficiency)” value was 7.32. For the same compound, the “LLE (ligand lipophilic efficiency)” value (listed as (2R,3R,4S,5R)-2-((1-((1H-Benzo[d]imidazol-2-yl)methyl)-1H-1,2,3-triazol-4-yl)met) came out at 7.3.

Consider `CC(=O)OC[C@H]1O[C@@H](OCc2cn(Cc3nc4ccccc4o3)nn2)[C@H](OC(C)=O)[C@@H](OC(C)=O)[C@H]1OC(C)=O` [Compound 8b, (2R,3S,4S,5R,6R)-2-(Acetoxymethyl)-6-((1-(benzo[d]oxazol-2-ylmethyl)-1H-1,2,3-triazol-4-yl)methoxy)tetrahydro-2H-pyran-3,4,5-triyl Triacetate], for which the “LE (ligand efficiency)” value amounted to 0.28 and the “LLE (ligand lipophilic efficiency)” value is given as 6.43.

Take `CC(=O)O[C@@H]1[C@@H](OC(C)=O)[C@H](OCc2cn(Cc3nc4ccccc4s3)nn2)OC[C@H]1OC(C)=O` [Compound 9c, (2R,3R,4S,5R)-2-((1-(Benzo[d]thiazol-2-ylmethyl)-1H-1,2,3-triazol-4-yl)methoxy)tetrahydro-2H-pyran-3,4,5-triyl Triacetate]: the “LE (ligand efficiency)” value is reported as 0.33 and the “LLE (ligand lipophilic efficiency)” value turned out to be 6.84.
